The source of these data is PubChem BioAssay AID434987 (Southern Research Specialized Biocontainment Screening …, 2010).

pIC50: −log10 of the molar value. The source made the active and inactive calls. The rule behind the calls is not given here.

In the assay the test system is M. tuberculosis H37Rv growth inhibition with meropenem. Put plainly: dose response, H37Rv, with and without meropenem (AID 434987).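 Note: growth over 7 days at 37 °C before Alamar Blue read on day 9.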
Where [1] appears, read: M. tuberculosis H37Rv growth inhibition, measured here: IC50 without meropenem.
Setting [2] is: M. tuberculosis H37Rv growth inhibition, measured here: IC90 without meropenem.
Where [3] appears, read: measured here: IC90 with meropenem.

`Nc1ccc([As](=O)(O)c2ccc([N+](=O)[O-])cc2)cc1`: the pIC50 (commonly −log10 of the IC50, conventionally taken in molar units) is 5.69. The negative-log IC50 (pIC50) under setting [1] is 4.99. The 90% effect concentration (IC90) (commonly the point of the concentration-response curve where the effect stands at 90%) under setting [2] is 36.4 µM. For the same molecule, the 90% effect concentration (IC90) under setting [3] was determined as 7.99 µM.
Regarding `Nc1ccc([As](=O)(O)c2ccc(N)cc2)cc1`, the negative-log IC50 (pIC50) was 5.18. For the same molecule, the pIC50 under setting [1] is 4.67. Besides, under setting [2], the IC90 was determined as 34.9 µM. The IC90 under setting [3] was 63.9 µM.
Take `O=[As](O)(c1ccc(O)cc1)c1ccccc1O`: the IC50 (commonly the concentration at which inhibition is half-maximal) is inactive: 12.7 µM. Under setting [1], this molecule showed a negative-log IC50 (pIC50) of 4.52. Also, the IC90 under setting [2] is 51.3 µM. Further, the 90% effect concentration (IC90) under setting [3] was determined as 57.6 µM.
`CCOC(=O)Nc1ccc([As](=O)(O)O)c(O)c1`: the pIC50 is 5.38. The pIC50 under setting [1] is 4.81. For the same molecule, under setting [2], the 90% effect concentration (IC90) came to 36.1 µM. This molecule showed an IC90 under setting [3] greater than 100 µM.
